Record: PubChem BioAssay AID624099 (ICCB-Longwood, 2012)
In all, the deposit lists about 21,000 reagents; below is a part drawn at random. 497 of all reagents (2.4%) count as active. 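Higher z means weaker E2 silencing; only reporter increases were scored, and knock-downs that hurt cell survival may mask genuine repressor factors.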 Reagents against one gene are numbered here.

- Assay: 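Human genes that papillomavirus E2 requires to repress the HPV18 LCR promoter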 (primary screen)
- System: human C33A cervical carcinoma cells (HPV-negative) stably expressing BPV1 E2 and an HPV18 LCR luciferase reporter
- Knock-down reagent: siRNA pool against human genes, 40 nM
- Time to read-out: 72 h
- Measured: 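Per-well luciferase luminescence, z-scored on each plate against the plate mean and SD with control wells left out, then averaged across three replicate plates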
- Reading the numbers: mean z-score and z-score: higher = stronger reporter signal, weaker E2 silencing
- Hit rule: 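Mean z ≥ 2 together with z ≥ 2 in two or more of the three replicates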

gene | reagent no. | mean z-score | z-score, replicate A | z-score, replicate B | z-score, replicate C | activity call
MRPL57 | 1 | -0.24 | -0.29 | -0.11 | -0.31 | inactive
MEIOB | 1 | 0.01 | 0 | 0.29 | -0.25 | inactive
APOA1 | 1 | 0.09 | 0.13 | -0.09 | 0.23 | inactive
USE1 | 1 | 2.56 | 2.75 | 2.62 | 2.31 | active
ZNF160 | 1 | -0.77 | -0.75 | -0.55 | -1 | inactive
DCLRE1B | 1 | -0.05 | 0.21 | -0.05 | -0.32 | inactive
PSG8-AS1 | 1 | -0.16 | 0.08 | -0.54 | -0.03 | inactive
LOC400552 (retired record) | 1 | 0.53 | 0.15 | 1.07 | 0.39 | inactive
HMGB4 | 1 | 1.67 | 1.68 | 1.35 | 1.96 | inactive
MRPS17 | 1 | 2.07 | 2.53 | 1.96 | 1.73 | inactive
LRRN2 | 1 | -0.08 | -0.21 | -0.02 | -0.02 | inactive
TJP3 | 1 | 0.45 | 0.97 | 0.38 | 0 | inactive
PPIL1 | 1 | 0.02 | 0.68 | 0.2 | -0.81 | inactive
MYL11 | 1 | -0.14 | 0.01 | -0.09 | -0.35 | inactive
LOC387648 (retired record) | 1 | -0.54 | -0.69 | -0.41 | -0.53 | inactive
RAC1 | 1 | -0.04 | -0.18 | 0.16 | -0.08 | inactive
FIBCD1 | 1 | 1.23 | 1.54 | 0.96 | 1.21 | inactive
MOB2 | 1 | -0.04 | 0.39 | -0.23 | -0.28 | inactive
UBE2O | 1 | 0.42 | 0.61 | 0.04 | 0.61 | inactive
B3GALT1 | 1 | -1.08 | -1.22 | -0.97 | -1.06 | inactive
TGFBR3 | 1 | -0.05 | -0.09 | 0.19 | -0.25 | inactive
STON1 | 1 | 2.3 | 2.79 | 2.15 | 1.94 | active
MASTL | 1 | -1.28 | -0.96 | -1.88 | -1 | inactive
SEMA4G | 1 | -0.02 | 0.13 | 0.1 | -0.28 | inactive
CNNM2 | 1 | -0.46 | -0.54 | -0.28 | -0.57 | inactive
SNX16 | 1 | -0.55 | -0.76 | -0.43 | -0.45 | inactive
NOL7 | 1 | -0.71 | -0.29 | -0.71 | -1.13 | inactive
FRAS1 | 1 | -0.27 | -0.05 | -0.52 | -0.23 | inactive
KCNMB1 | 1 | 0.67 | 0.5 | 0.76 | 0.75 | inactive
ACTN1 | 1 | -0.37 | -0.31 | -0.29 | -0.52 | inactive
QRICH2 | 1 | -1.75 | -1.44 | -1.98 | -1.84 | inactive
KBTBD7 | 1 | 0.24 | -0.11 | 0.01 | 0.82 | inactive
WDR54 | 1 | -0.98 | -1.1 | -1 | -0.84 | inactive
NFAT5 | 1 | 0.11 | -0.16 | 0.18 | 0.3 | inactive
IER5 | 1 | -0.85 | -0.54 | -1.12 | -0.87 | inactive
ABHD17C | 1 | -0.19 | 0.08 | 0.26 | -0.93 | inactive
MR1 | 1 | -0.07 | -0.21 | 0.02 | -0.03 | inactive
SLC16A4 | 1 | -0.93 | -0.9 | -0.78 | -1.1 | inactive
GSR | 1 | 1.33 | 2.12 | 1.11 | 0.75 | inactive
EMILIN2 | 1 | 0.86 | 0.93 | 0.74 | 0.92 | inactive
NDUFAF4P2 | 1 | -0.49 | -0.7 | 0.23 | -1.01 | inactive
NDUFAF4P2 | 2 | -1.09 | -1.35 | -1.13 | -0.78 | inactive
FHOD3 | 1 | 0.36 | 0.44 | 0.78 | -0.14 | inactive
ABCF2 | 1 | 1.03 | 0.98 | 0.91 | 1.19 | inactive
ICE1 | 1 | 1.89 | 2.01 | 1.55 | 2.1 | inactive
POLR2I | 1 | -0.5 | -0.43 | -0.59 | -0.49 | inactive
OR51A4 | 1 | -0.01 | -0.05 | 0.09 | -0.06 | inactive
MZB1 | 1 | -0.94 | -0.53 | -1.13 | -1.17 | inactive
NME1 | 1 | -0.81 | -0.82 | -0.98 | -0.64 | inactive
CRIPT | 1 | -0.29 | -0.34 | -0.23 | -0.31 | inactive
ADRM1 | 1 | -0.3 | -0.35 | -0.18 | -0.37 | inactive
SF3B6 | 1 | 0.31 | 0.46 | 0.36 | 0.12 | inactive
TNFSF14 | 1 | -0.78 | -0.85 | -0.93 | -0.57 | inactive
RPL10P9 | 1 | -4.68 | -4.95 | -4.56 | -4.53 | inactive
PARP6 | 1 | -0.31 | -0.34 | -0.35 | -0.25 | inactive
ENPP2 | 1 | 0.57 | 0.11 | 0.83 | 0.76 | inactive
CCDC13 | 1 | -0.15 | -0.06 | -0.5 | 0.1 | inactive
DIS3L2 | 1 | -0.4 | -0.45 | -0.39 | -0.36 | inactive
MAEA | 1 | -0.29 | -0.46 | -0.38 | -0.02 | inactive
LINC01097 | 1 | 0.11 | 0.2 | -0.03 | 0.16 | inactive
LOC391763 (retired record) | 1 | 0.37 | 0.5 | -0.07 | 0.68 | inactive
LOC391763 (retired record) | 2 | -1.21 | -1.21 | -1.24 | -1.19 | inactive
SLC66A3 | 1 | 1.61 | 1.65 | 1.89 | 1.3 | inactive
CALU | 1 | 0.08 | 0.14 | -0.09 | 0.2 | inactive
HSCB | 1 | -0.34 | -0.08 | -0.65 | -0.31 | inactive
HEXB | 1 | -0.71 | -0.89 | -0.88 | -0.36 | inactive
RDH13 | 1 | 0.58 | 0.57 | 0.33 | 0.83 | inactive
MMACHC | 1 | -1.07 | -0.94 | -1.27 | -1.01 | inactive
CCN2 | 1 | 0.45 | 0.23 | 0.73 | 0.41 | inactive
LOC389147 (retired record) | 1 | 1.47 | 2.15 | 1.39 | 0.85 | inactive
XRCC6P2 | 1 | 0.99 | 0.44 | 1.19 | 1.34 | inactive
GFER | 1 | 0.37 | 0.97 | 0.06 | 0.08 | inactive
NRXN2 | 1 | -0.12 | -0.44 | 0.08 | 0 | inactive

Called active (from the list above):
gene | reagent no. | mean z-score | z-score, replicate A | z-score, replicate B | z-score, replicate C | activity call
USE1 | 1 | 2.56 | 2.75 | 2.62 | 2.31 | active
STON1 | 1 | 2.3 | 2.79 | 2.15 | 1.94 | active
